The entries are a selection whose mix differs from that of the whole data set. Calls of active or inactive are those of the source. No stated cut-off is given here; in the data, active means z-score below about -2 (passing the limit was not always enough); inactive means the rest.

Here are results for 31 compounds from PubChem BioAssay AID504770 (ICCB-Longwood Screening Facility, Harvard Medical School, 2011).

The test is described as follows: PubChem AID 504770. As to conditions: E. coli YBA685 rctB-dependent plasmid, OD600 growth, 3 h; stronger effect = lower value.
On to `CC(C)(C)OC(=O)N1CCC(Nc2ccc(OC(F)(F)F)cc2)CC1`, for which the z-score is inactive: 0.65. Turning to `Cn1nc(C(=O)NCC2(N3CCCCC3)CCCCC2)c2ccccc2c1=O`, the z-score is inactive: 0.55. In the case of `FC(F)(F)Oc1ccc(NC2CCNCC2)cc1` it was inactive: -0.35; in that of `Cc1ccc(C(=O)NCC2(N(C)C)CCCCC2)o1`, inactive: 0.2.

Regarding `c1ccc(CN2CCC(Nc3ccc4c(c3)OCO4)CC2)cc1`, the z-score was inactive: -0.15. For the compound `NC(=O)C1(Nc2ccc(F)cc2)CCNCC1`, the z-score is inactive: -0.9.

Turning to `COc1ccc(C(=O)NCC2(N3CCCCC3)CCCCC2)cc1`, the z-score was inactive: -0.5. Take `Cc1ccccc1NC1CC(C)(C)NC(C)(C)C1`: the z-score was inactive: 0.3. In the case of `CCCN1CCC(Nc2ccc(OC)c(OC)c2)CC1` it was inactive: -0.9. With `CC1CN(CCc2ccccc2)CCC1=O` (stereo unspecified) the figure was inactive: -0.8.

Consider `N#CC1(Nc2ccccc2)CCN(Cc2ccccc2)CC1`, for which the z-score was inactive: -0.4.

As for `Cc1cnc(C(=O)NCC2(N3CCCCC3)CCCCC2)cn1`, the z-score is inactive: 0.15. With `CCOC(=O)N1CCC(Nc2ccc(F)cc2)CC1` the figure was inactive: -0.25.

`O=C1CCN(Cc2ccccc2)CC1`: the z-score was inactive: 3.05. With `O=C(NCC1(N2CCOCC2)CCCCC1)c1ccc2nc[nH]c2c1`, the z-score is inactive: 0.1. Take `CCOC(=O)N1CCC(Nc2cccc(C)c2)CC1`: the z-score is inactive: -0.45. With `CC1CN(Cc2ccccc2)CCC1=O` (stereo unspecified) the figure was inactive: 0.95; with `CC1CN(CCc2ccccc2)C(C)CC1=O` (stereo unspecified), inactive: -0.7. With `CN(C)c1ccc(C(=O)NCC2(N3CCCCC3)CCCCC2)cc1` the figure was inactive: -0.25; with `CC1CN(C)C(C)CC1Nc1ccccc1` (stereo unspecified), inactive: -1.35. Take `CCN1CCC(Nc2ccc(F)cc2)CC1`: the z-score was inactive: 0.75. In the case of `CCOc1ncccc1C(=O)NCC1(N(C)C)CCCCC1` it was inactive: -0.45; in that of `CC(C)(C)OC(=O)N1CCC(Nc2ccccc2)CC1`, inactive: -0.55. For `CCOc1ncccc1C(=O)NCC1(N2CCCCC2)CCCCC1`, the z-score is inactive: 0.8. With `O=C(NCC1(N2CCCCC2)CCCCC1)c1n[nH]c2ccccc12` the figure was inactive: 0.25. In the case of `NC(=O)C1(Nc2ccccc2)CCN(Cc2ccccc2)CC1` it was inactive: -0.25; in that of `CN1CCC(Nc2ccc(F)cc2)CC1`, inactive: 0.4; in that of `O=C1CCN(CCc2ccccc2)CC1`, inactive: -1.35. As for `O=C(NCC1(N2CCOCC2)CCCCC1)c1cc2ccccc2cc1O`, the z-score was inactive: -0.65.

Consider `Cc1c(C(=O)NCC2(N3CCOCC3)CCCCC2)oc2c(Cl)cccc12`, for which the z-score is inactive: 0. In the case of `CCCN1CCC(Nc2cc(OC)cc(OC)c2)CC1` it was inactive: 0.
